The source of these data is publication PMC13395416 (PLOS Pathogens, 2026).

In this experiment the target is SteC_(210-457;K256H), entire predicted kinase domain (Salmonella Typhimurium strain 14028s, UniProt D0ZIB5 210-457, K256H). Briefly: HDX-MS.

B1: FMNL1 K190 24mer peptide (K190-K213) (peptide, UniProt O95466 190-213, looked up)
peptide: KGPPSSVPKSRHLTIKLTPAHSRK
notes: also called FMNL1 peptide; FMNL1 K190 peptide
On to B1, for which the binding result is “binds”.
